Source: patent US9675065B2 (priority 2011, dated 2017)

How the values were obtained:
[1] = test system: S. aureus (Staphylococcus aureus ATCC#6538)
[2] = test system: Staphylococcus aureus

O=C(CO)O[Cl+2]([O-])[O-]
rate of kill increased by ([1]; combined with surfactants Tergitol TMN 3, Tergitol TMN 6, Dowfax C10L versus without): 5 log

CCCCCCCC(=O)O[Cl+2]([O-])[O-]
Log Rate of Kill ([2]; in 30 seconds or less): 8 Log | rate of kill (in words) ([2]; pH approaching 6): excellent rate of kill

O=C(O[Cl+2]([O-])[O-])c1ccccc1
biocide efficacy (in words) ([2]; at about pH 7, without penetrators): no recognizable biocide efficacy | rate of kill / biocide efficacy (in words) ([1]; acid pH conditions): excellent rate of kill
